A mixed list of measured activities; the numbers were collected in NIAID ChemDB.

Shared fields: enzyme or target tests; organism: HIV; protein: Reverse transcriptase

Conditions beyond the fields shown may differ between rows. An empty or dashed field is not shown. ICn is the concentration giving n% inhibition.

structure | measure | changes | read by | value
Nc1ncnc2c1ncn2[C@H]1CC[C@@H](COP(=O)(O)OP(=O)(O)OP(=O)(O)O)O1 | Ki |  |  | 0.021 µM
Cc1cc(C)cc([C@]23SCCN2C(=O)c2ccccc23)c1 | IC50 | RT-Y188L | ELISA | 9.8 µM
COc1ccc2c(c1)N(C(=O)OC(C)C)[C@@H](CSC)C(=S)N2 | Ki | RT-V106A P225H | RT activity | 0.028 µM
Cc1cn([C@@H]2O[C@H](CO[Si](C)(C)C(C)(C)C)C3(OS(=O)(=O)C=C3N)[C@H]2O[Si](C)(C)C(C)(C)C)c(=O)n(C)c1=O | IC50 | RT-Y181C | nucleotide incorporation | >750 µM
Cc1cn([C@@H]2O[C@H](CO[Si](C)(C)C(C)(C)C)C3(OS(=O)(=O)C=C3N)[C@H]2O[Si](C)(C)C(C)(C)C)c(=O)n(C)c1=O | IC50 | RT-V106A P225H | RT activity | >500 µM
CO[P@](=O)(c1cc(C)cc(/C=C/C#N)c1)c1c(C(N)=O)[nH]c2ccc(Cl)cc12 | IC50 | L1001 |  | 0.13 µM
Cc1cn([C@@H]2O[C@H](CO[Si](C)(C)C(C)(C)C)[C@@]3(OS(=O)(=O)C=C3N)[C@H]2O[Si](C)(C)C(C)(C)C)c(=O)[nH]c1=O | IC50 | RT-N137D | nucleotide incorporation / radiometric | 1.1 µM
CC(C)=CCN1Cc2cccc3[nH]c(=S)n(c23)C[C@@H]1C | IC50 | RT-E138K | nucleotide incorporation | 4.8 µM
O=c1[nH]cnc2c1ncn2[C@H]1CC[C@@H](CO)O1 | IC50 | RT-K65R S68G | RT activity | 5.9 µM
CCNc1cccnc1N1CCN(C(=O)c2cc3cc4c(cc3[nH]2)OCO4)CC1 | IC50 | RT-Y181C P236L |  | >50 µM
Cc1cn([C@@H]2O[C@H](CO[Si](C)(C)C(C)(C)C)[C@@]3(OS(=O)(=O)C=C3N)[C@H]2O[Si](C)(C)C(C)(C)C)c(=O)[nH]c1=O | IC50 | RT-E138K | nucleotide incorporation | >155 µM
Nc1nc2c(ncn2[C@H]2CC[C@@H](COP(=O)(O)OP(=O)(O)OP(=O)(O)O)O2)c(=O)[nH]1 | IC50 | RT-E138K(P51 ONLY) |  | 0.015 µM
CCOc1ccccc1N1CCN(C(=O)c2cc3ccccc3[nH]2)CC1 | IC50 | RT-Y181C P236L |  | >50 µM
CCc1c([Se]c2ccccc2)n(COCc2ccccc2)c(=O)[nH]c1=O | IC50 | RT-V90A | RT activity | 0.1 µM
Nc1nc2c(ncn2[C@H]2CC[C@@H](COP(=O)(O)OP(=O)(O)OP(=O)(O)O)O2)c(=O)[nH]1 | IC50 | RT-N137T | nucleotide incorporation / radiometric | 2.2 µM
C#CC1(COP(=O)(O)OP(=O)(O)OP(=O)(O)O)CCC(n2ccc(N)nc2=O)O1 | IC50 |  | nucleotide incorporation / radiometric | 0.05 µM
O=C1c2ccccc2C2(c3ccccc3)SCCN12 | IC50 | RT-K101A | ELISA | 55 µM
Cc1cn([C@H]2C=C[C@@H](COP(=O)(O)OP(=O)(O)OP(=O)(O)O)O2)c(=O)[nH]c1=O | IC50 |  | nucleotide incorporation / radiometric | 0.008 µM
Nc1ncnc2c1ncn2[C@H]1CC[C@@H](COP(=O)(O)OP(=O)(O)OP(=O)(O)O)O1 | IC50 | RT-K65R |  | 29.9 µM
CCc1c([Se]c2ccccn2)n(COCc2ccccc2)c(=O)[nH]c1=O | IC50 | RT-V90A | RT activity | 0.07 µM
CC(C)=CCN1Cc2cccc3[nH]c(=S)n(c23)C[C@@H]1C | IC50 | RT-E138K(P51 ONLY) |  | 0.76 µM
CC(=O)c1ccc(C)cc1NC(C(N)=O)c1c(Cl)cccc1Cl | IC50 | RT-V106A P225H | RT activity | 15 µM
CC(C)Nc1cccnc1N1CCN(C(=O)c2cc3ccccc3[nH]2)CC1 | IC50 | RT-E138K | nucleotide incorporation | 1 µM
COc1ccc2c(c1)N(C(=O)OC(C)C)[C@@H](CSC)C(=S)N2 | IC50 | RT-D67N K70R T215F K219Q Y181C | RT activity | 0.027 µg/mL
Cc1c(C(C)c2c(F)cccc2F)nc(NC2CCCC2)[nH]c1=O | IC50 | Y188L | nucleotide incorporation / radiometric | 1.1 µM
c1ccc(C2SCc3nc4ccccc4n32)cc1 | IC50 | RT-K103N Y181I |  | >50 µM
C#C[C@@]1(COP(=O)(O)OP(=O)(O)OP(=O)(O)O)CC[C@H](n2ccc(N)nc2=O)O1 | IC50 |  | nucleotide incorporation / radiometric | 0.05 µM
CCc1c(Sc2ccccc2)n(COCc2ccccc2)c(=O)[nH]c1=O | IC50 | RT-V90A | RT activity | 0.1 µM
Cc1cn([C@@H]2O[C@H](CO[Si](C)(C)C(C)(C)C)C3(OS(=O)(=O)C=C3N)[C@H]2O[Si](C)(C)C(C)(C)C)c(=O)n(C)c1=O | IC50 | RT-N137E | nucleotide incorporation / radiometric | 1.7 µM
C[C@H](Cn1cnc2c(N)ncnc21)OCP(=O)(O)OP(=O)(O)OP(=O)(O)O | Ki |  |  | 0.18 µM
NS(=O)(=O)c1ccc(CCNC(=O)Cc2cccs2)cc1 | IC50 |  | nucleotide incorporation | 1.2 µM
Nc1ncnc2c1ncn2[C@@H]1O[C@H](OCP(=O)(O)OP(=O)(O)OP(=O)(O)O)C=C1F | Ki |  |  | 0.8 µM
CC(C)Nc1cccnc1N1CCN(C(=O)c2cc3cc4c(cc3[nH]2)OCO4)CC1 | IC50 | RT-Y181C P236L |  | >50 µM
Nc1nc(=O)n([C@H]2CS[C@@H](COP(=O)(O)OP(=O)(O)OP(=O)(O)O)O2)cc1F | Ki |  |  | 1.2 µM
CC(C)=CCN1Cc2cccc3[nH]c(=S)n(c23)C[C@@H]1C | IC50 |  | nucleotide incorporation | 3.83 µM

Repeating the first 3 entries:

| structure | measure | changes | read by | value |
|---|---|---|---|---|
| Nc1ncnc2c1ncn2[C@H]1CC[C@@H](COP(=O)(O)OP(=O)(O)OP(=O)(O)O)O1 | Ki |  |  | 0.021 µM |
| Cc1cc(C)cc([C@]23SCCN2C(=O)c2ccccc23)c1 | IC50 | RT-Y188L | ELISA | 9.8 µM |
| COc1ccc2c(c1)N(C(=O)OC(C)C)[C@@H](CSC)C(=S)N2 | Ki | RT-V106A P225H | RT activity | 0.028 µM |